Like-named read-outs stand apart in the source and are kept apart here.

One experiment addresses HIV protease (Human immunodeficiency virus type 1 group M subtype B, UniProt P04585).
The target in experiment [1] is single-chain tethered dimer of HIV protease (Human immunodeficiency virus 1, UniProt P04585).
The mark [2] stands for this setting: read-out: HPLC K1, Table 2d, class symbols.
Setting [3] is: read-out: HPLC K1, Table 2d, HIV protease inhibition, HPLC method.

As to `N#Cc1cccc(CN2C(=O)N(Cc3cccc(C#N)c3)[C@H](Cc3ccc(F)cc3)[C@H](O)[C@H]2CCc2ccc(F)cc2)c1`, on HIV protease, the Ki fell in the range of 10 to 1000 nM. Moreover, the IC90 result with HIV-1 (RF) in MT-2 cells (Table 1e) is reported as “+++ (+++=<10 μg/mL)”.

For `NC(=NO)c1cccc(CN2C(=O)N(Cc3cccc(C(N)=NO)c3)[C@H](Cc3ccc(F)c(F)c3)[C@H](O)[C@H]2CCc2ccc(F)c(F)c2)c1`, the Ki on HIV protease (Table 1e) was under 10 nM. Moreover, the IC90 entry in the experiment with HIV-1 (RF) in MT-2 cells (Table 1e) is listed as “+++ (+++=<10 μg/mL)”. The compound `COCCOCCOCCN1C(=O)N(CCOCCOCCOC)[C@@H](Cc2ccccc2)[C@@H](O)[C@H](O)[C@@H]1Cc1ccccc1` registered a Ki on HIV protease (Table 1a) of over 1000 nM. The compound `NC(=NO)c1cccc(CN2C(=O)N(Cc3cccc(C(N)=NO)c3)[C@H](Cc3ccc(F)cc3)[C@H](O)[C@H]2CCc2ccc(F)cc2)c1` returned a Ki on HIV protease (Table 1e) of under 10 nM. In addition, the IC90 result in the experiment on HIV-1 (RF) in MT-2 cells (Table 1e) is on record as “+++ (+++=<10 μg/mL)”. As for `NC(=O)c1cc(CN2C(=O)N(Cc3ccc(F)c(C(N)=O)c3)[C@H](Cc3ccccc3)[C@H](O)[C@H]2CCc2ccccc2)ccc1F`, the Ki at HIV protease (Table 1e) is under 10 nM. Moreover, in the experiment with HIV-1 (RF) in MT-2 cells (Table 1e), the IC90 result is reported as “+++ (+++=<10 μg/mL)”. The like results for `NC(=O)c1cccc(CN2C(=O)N(Cc3cccc(C(N)=O)c3)[C@H](Cc3ccc(F)cc3)[C@H](O)[C@H]2CCc2ccc(F)cc2)c1` were, in that order, under 10 nM and “+++ (+++=<10 μg/mL)”. The compound `O=C1NC(CCc2ccccc2)[C@@H](O)[C@@H](Cc2ccccc2)N1Cc1cccc(O)c1` (stereo partly drawn) gave a Ki at HIV protease (Table 1e) of under 10 nM. Also, in the experiment with HIV-1 (RF) in MT-2 cells (Table 1e), the IC90 entry is “+++ (+++=<10 μg/mL)”.

`NC(=O)c1cccc(CN2C(=O)N(Cc3cccc(C(N)=O)c3)[C@H](Cc3ccccc3)[C@H](O)[C@H]2CCc2ccccc2)c1` had a Ki at HIV protease (Table 1e) of under 10 nM. Moreover, the IC90 result with HIV-1 (RF) in MT-2 cells (Table 1e) was “+++ (+++=<10 μg/mL)”.

On HIV protease (Table 1e), `CNc1cccc(CN2C(=O)N(Cc3cccc(NC)c3)[C@H](Cc3ccccc3)[C@H](O)[C@H]2CCc2ccccc2)c1` had a Ki of under 10 nM. The IC90 result in the experiment on HIV-1 (RF) in MT-2 cells (Table 1e) is “+++ (+++=<10 μg/mL)”. `NC(=NO)c1cc(CN2C(=O)N(Cc3ccc(F)c(C(N)=NO)c3)[C@H](Cc3ccccc3)[C@H](O)[C@H]2CCc2ccccc2)ccc1F` had a Ki on HIV protease (Table 1e) of under 10 nM. Also, the IC90 result with HIV-1 (RF) in MT-2 cells (Table 1e) is listed as “+++ (+++=<10 μg/mL)”.

`NC(=O)c1cccc(CN2C(=O)N(Cc3cccc(C(N)=O)c3)[C@H](Cc3ccc(F)c(F)c3)[C@H](O)[C@H]2CCc2ccc(F)c(F)c2)c1` registered a Ki at HIV protease (Table 1e) of under 10 nM. Further, in the experiment with HIV-1 (RF) in MT-2 cells (Table 1e), the IC90 entry is reported as “+++ (+++=<10 μg/mL)”. Turning to `COCCOCO[C@@H]1C(C(F)Cc2ccccc2)N(CC2CC2)C(=O)N(CC2CC2)[C@@H]1Cc1ccccc1` (stereo partly drawn), the Ki at HIV protease (Table 1e) was over 1000 nM. Also, the IC90 entry in the experiment with HIV-1 (RF) in MT-2 cells (Table 1e) was “++ (++=10 to 100 μg/mL)”.

On to `NC(=O)NN=Cc1cccc(CN2C(=O)N(Cc3cccc(C=NNC(N)=O)c3)[C@H](Cc3ccccc3)[C@H](O)[C@@H](O)[C@H]2Cc2ccccc2)c1`, for which, in experiment [1] (setting [2]), the Ki was under 10 nM. For the same compound, the IC90 entry in the experiment with HIV-1 (RF) in MT-2 cells (Table 2d, class symbols) is given as “+++ (+++=<10 μg/mL)”. For `NC(=O)Nc1cccc(CN2C(=O)N(Cc3cccc(NC(N)=O)c3)[C@H](Cc3ccccc3)[C@H](O)[C@@H](O)[C@H]2Cc2ccccc2)c1` the same measures were under 10 nM and “+++ (+++=<10 μg/mL)”. For `Nc1nc(-c2cccc(CN3C(=O)N(Cc4cccc(-c5csc(N)n5)c4)[C@H](Cc4ccccc4)[C@H](O)[C@@H](O)[C@H]3Cc3ccccc3)c2)cs1`, in experiment [1] (setting [3]), the Ki is under 10 nM. Besides, the IC90 entry in the experiment with HIV-1 (RF) in MT-2 cells (Table 2d, HIV RNA assay) is “+++ (+++=<10 μg/mL)”.

Consider `COC(=O)c1cccc(CN2C(=O)N(Cc3cccc(C(=O)OC)c3)[C@H](Cc3ccccc3)[C@H](O)C[C@H]2Cc2ccccc2)c1`, for which, in experiment [1] (read-out: HPLC Ki, Table 1d, lower part), the Ki lay in the range of 10 to 1000 nM. Moreover, the “Mass Spec M + H (class symbols printed in this column)” value in the experiment on HIV-1 (RF) in MT-2 cells (Table 1d, lower part) was “+++ (+++=<10 μg/mL)”. For `O=C1N(Cc2ccc3cnccc3c2)[C@H](Cc2ccccc2)[C@H](O)[C@@H](O)[C@@H](Cc2ccccc2)N1Cc1ccc2cnccc2c1`, in experiment [1] (setting [2]), the Ki lay in the range of 10 to 1000 nM. Moreover, the IC90 result in the experiment with HIV-1 (RF) in MT-2 cells (Table 2d, class symbols) was “+ (+=>100 μg/mL)”. Turning to `CS(=O)(=O)c1cccc(CN2C(=O)N(Cc3cccc(S(C)(=O)=O)c3)[C@H](Cc3ccccc3)[C@H](O)[C@@H](O)[C@H]2Cc2ccccc2)c1`, the Ki in experiment [1] (setting [2]) was under 10 nM. For the same compound, the IC90 result with HIV-1 (RF) in MT-2 cells (Table 2d, class symbols) is on record as “+++ (+++=<10 μg/mL)”. In the case of `Nc1nc(-c2cccc(CN3[C@H](Cc4ccccc4)[C@H](O)[C@@H](O)[C@@H](Cc4ccccc4)N(Cc4cccc(-c5csc(N)n5)c4)S3(=O)=O)c2)cs1`, the Ki in experiment [1] (read-out: HPLC Ki, Table 2m) was under 10 nM. For the same compound, the IC90 result with HIV-1 (RF) in MT-2 cells (Table 2m) is “+++ (+++=<10 μg/mL)”. For the compound `O=S1(=O)N(CCCCCCO)[C@H](Cc2ccccc2)[C@H](O)[C@@H](O)[C@@H](Cc2ccccc2)N1CCCCCCO`, the Ki in experiment [1] (read-out: HPLC Ki, Table 2m) is under 10 nM. Moreover, the IC90 result in the experiment on HIV-1 (RF) in MT-2 cells (Table 2m) is “+++ (+++=<10 μg/mL)”. `C=C(CCl)CN1C(=O)N(CC(=C)CCl)[C@H](Cc2ccccc2)[C@H](O)[C@@H](O)[C@H]1Cc1ccccc1`: the Ki in experiment [1] (setting [3]) is 10 to 1000 nM. The IC90 entry with HIV-1 (RF) in MT-2 cells (Table 2d, HIV RNA assay) is “++ (++=10 to 100 μg/mL)”. For `CN(C)CC(=O)Nc1cccc(CN2[C@H](Cc3ccccc3)[C@H](O)[C@@H](O)[C@@H](Cc3ccccc3)N(Cc3cccc(NC(=O)CN(C)C)c3)S2(=O)=O)c1`, the Ki in experiment [1] (read-out: HPLC Ki, Table 2m) was under 10 nM. In addition, the IC90 entry with HIV-1 (RF) in MT-2 cells (Table 2m) is given as “+++ (+++=<10 μg/mL)”. Turning to `CNc1cccc(CN2C(=O)N(Cc3cccc(NC)c3)[C@H](C(Br)Cc3ccccc3)[C@@H](O)[C@H]2Cc2ccccc2)c1` (stereo partly drawn), the Ki at HIV protease (Table 1e) fell in the range of 10 to 1000 nM. In the experiment with HIV-1 (RF) in MT-2 cells (Table 1e), the IC90 entry was “+++ (+++=<10 μg/mL)”.

The values above are taken from patent USRE37781E1, “Substituted cyclic carbonyls and derivatives thereof useful as retroviral protease inhibitors” (DuPont Pharmaceuticals Company, priority 1991, dated 2002).
